System: Mtb
Experiment: Limit of detection of Mtb by microscopy
Assay type: cell-based, Mycobacterium tuberculosis

SMILES	limit of detection (liquid culture assay)	limit of detection (specimen concentrated and collected onto a filter membrane, DMN-Tre added directly onto the membrane) [CFU/mL]
CN(C)c1ccc(C(=N)c2ccc(N(C)C)cc2)cc1.Cl [Auramine O, reference compound]	~10^4 CFU/mL	
CN(C)c1ccc2c3c(cccc13)C(=O)N(C[C@H]1O[C@H](O[C@H]3O[C@H](CO)[C@@H](O)[C@H](O)[C@H]3O)[C@H](O)[C@@H](O)[C@@H]1O)C2=O [DMN-Tre, 4-N,N-dimethylamino-1,8-naphthalimide-conjugated trehalose]	~10^4 CFU/mL	< 50
